The values that follow come from paper PMC4624963, “Enzymatic Characterization of Recombinant Food Vacuole Plasmepsin 4 from the Rodent Malaria Parasite Plasmodium berghei” (PLoS ONE, 2015).

The chains behind the UniProt entries cited, without tags or fusion partners. Residues count along the entry.
UniProt O76965, 118-450 limits assumed: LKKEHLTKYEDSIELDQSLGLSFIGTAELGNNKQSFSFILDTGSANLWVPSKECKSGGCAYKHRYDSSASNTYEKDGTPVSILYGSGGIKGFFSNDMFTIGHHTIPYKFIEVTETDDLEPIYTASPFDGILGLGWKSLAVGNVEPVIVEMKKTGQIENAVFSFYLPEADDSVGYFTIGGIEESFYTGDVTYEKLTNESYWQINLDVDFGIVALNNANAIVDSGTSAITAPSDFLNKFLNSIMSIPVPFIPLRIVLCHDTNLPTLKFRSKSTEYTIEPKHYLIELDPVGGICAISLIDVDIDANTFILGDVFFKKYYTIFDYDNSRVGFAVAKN

SMILES strings stand for the structures.

The target in the assay is PbPM4 (Plasmodium berghei, UniProt O76965). Kind of assay: Inhibition of mature PbPM4, dissociation constants (Ki) from initial cleavage velocities of a chromogenic peptide substrate. The assay is classed as biochemical. The settings on record: sodium citrate pH 5.0, 37°C, 5 min pre-equilibrium.

As usually defined, the Ki is the equilibrium dissociation constant of an inhibitor or competing ligand from its target. A high value points to a looser hold on the target.

As to `CC(C)CC(C=O)NC(=O)C(Cc1ccccc1)NC(=O)C(Cc1ccccc1)NC(=O)OCc1ccccc1` (stereo not shown), the Ki is 135 nM.
